Experiments:
rat hippocampal MAGL = rat hippocampal MAGL (Rattus norvegicus, UniProt Q8R431); assay: In vitro inhibition of hippocampal MAGL activity; format: biochemical
rat hippocampal AChE = target: T1, rat hippocampal AChE (Rattus norvegicus, UniProt P37136); assay: biochemical
T1 sequence (P37136 32-614): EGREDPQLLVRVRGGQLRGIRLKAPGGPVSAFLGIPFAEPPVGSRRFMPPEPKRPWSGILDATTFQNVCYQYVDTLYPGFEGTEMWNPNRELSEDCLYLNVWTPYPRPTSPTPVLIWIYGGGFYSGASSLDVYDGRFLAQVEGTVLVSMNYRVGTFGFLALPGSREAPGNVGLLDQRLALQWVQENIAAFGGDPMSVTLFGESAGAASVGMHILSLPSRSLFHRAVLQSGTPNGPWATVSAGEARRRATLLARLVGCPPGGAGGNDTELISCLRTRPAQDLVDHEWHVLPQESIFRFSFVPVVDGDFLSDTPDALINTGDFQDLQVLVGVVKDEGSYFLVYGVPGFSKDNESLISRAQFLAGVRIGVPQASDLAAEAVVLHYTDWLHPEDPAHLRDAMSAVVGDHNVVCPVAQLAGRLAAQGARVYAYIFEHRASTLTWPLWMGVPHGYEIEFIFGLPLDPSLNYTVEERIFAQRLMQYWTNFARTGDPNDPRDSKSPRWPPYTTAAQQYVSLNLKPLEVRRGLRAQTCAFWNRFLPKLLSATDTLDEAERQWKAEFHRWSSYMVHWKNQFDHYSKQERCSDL

Protein sequences, listed by entry. Tags and fused reporters are not part of them.
UniProt Q8R431, whole entry: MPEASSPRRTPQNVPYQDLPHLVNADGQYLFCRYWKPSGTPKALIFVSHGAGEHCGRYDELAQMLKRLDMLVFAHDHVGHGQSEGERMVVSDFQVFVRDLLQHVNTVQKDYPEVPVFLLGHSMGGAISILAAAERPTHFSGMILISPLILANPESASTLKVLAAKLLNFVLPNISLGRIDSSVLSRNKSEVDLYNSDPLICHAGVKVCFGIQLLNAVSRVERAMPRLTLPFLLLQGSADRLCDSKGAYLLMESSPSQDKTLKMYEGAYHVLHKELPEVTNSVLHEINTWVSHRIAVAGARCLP

SMILES	IC50 (rat hippocampal MAGL) [µM]	IC50 (rat hippocampal AChE) [µM]
CCOP(=O)(OCC)Oc1nc(Cl)c(Cl)cc1Cl [chlorpyrifos oxon]	0.17	
CCOP(=O)(OCC)Oc1ccc([N+](=O)[O-])cc1 [paraoxon, Paraoxon]	3.17	0.064

— article PMC4448943 (Neurotoxicology, 2014)
